# Reference: patent US20170059558A1
# Target: SNAP-25 (human) (UniProt P60880)
# Assay: cell-based or functional assay
substance,measurement,value
Botulinum neurotoxin type A,"EC50 with GT1b (30 µM), SNAP-25 cleavage in iCell neurons, Batch 02",0.65 U/ml
same,"EC50 with GT1b (30 µM), SNAP-25 cleavage in iCell neurons, Batch 03",0.89 U/ml
same,"EC50 with GT1b (30 µM), SNAP-25 cleavage in iCell neurons, Batch 04",0.77 U/ml
same,"EC50 with GT1b (30 µM), SNAP-25 cleavage in iCell neurons, Batch 05",0.68 U/ml
same,"EC50 with GT1b (30 µM), SNAP-25 cleavage in iCell neurons, Mean of 4 batches",0.75 U/ml
same,"EC50 without GT1b, SNAP-25 cleavage in iCell neurons, Batch 02",2.84 U/ml
same,"EC50 without GT1b, SNAP-25 cleavage in iCell neurons, Batch 03",5.37 U/ml
same,"EC50 without GT1b, SNAP-25 cleavage in iCell neurons, Batch 04",6.4 U/ml
same,"EC50 without GT1b, SNAP-25 cleavage in iCell neurons, Batch 05",5.47 U/ml
same,"EC50 without GT1b, SNAP-25 cleavage in iCell neurons, Mean of 4 batches",5.02 U/ml
